Results of unrelated studies side by side (data: NIAID ChemDB).

All rows: growth or infection tests; species: Hepatitis C virus; method: replicon; measure: EC50

Rows are shuffled and stem from different studies.

SMILES	setting	strain	cell line	result
NC(=S)Nc1ccc(N2CCC(c3ccccc3)CC2)c(F)c1	-	-	Huh7	<1 µM
C=CC1C[C@@]1(NC(=O)[C@@H]1C[C@@H](Oc2cc(-c3ccccc3)nc3cc(OC)ccc23)CN1C(=O)[C@@H](NC(=O)OCCOC)C(C)(C)C)C(=O)NS(=O)(=O)C1(Cc2ccccc2)CC1	-	1b	Huh7	0.5–5 µM
O=C(NS(=O)(=O)C1CC1)c1ccc(F)c(Cn2c(C(=O)NS(=O)(=O)C3CC3)c(-c3ccc[nH]c3=O)c3c4occc4c(F)cc32)c1	-	-	-	0.5–1.5 µM
C=C[C@H]1C[C@@]1(NC(=O)[C@@H]1C[C@@H](Oc2cc(-c3ccccc3)nc3cc(OC)ccc23)CN1C(=O)[C@@H](NC(=O)OC(C)(C)C)C(C)(C)C)C(=O)NS(=O)(=O)C1(COC(C)C)CC1	-	1b	Huh7	<0.05 µM
NC(=S)NCc1cccc(-c2ccccc2)c1	-	-	Huh7	<1 µM
CNC(=O)c1c(-c2ccc(F)cc2)oc2cc(N(C)S(C)(=O)=O)c(OCc3nsc(N(C)C4CC4)n3)cc12	-	-	Huh7	<1 µM
CCOc1nc(NCc2ccc(CS(=O)(=O)NC(C)C)cc2)nc2ccc(-c3ccc(F)cc3)nc12	-	-	-	<0.1 µM
O=C(NS(=O)(=O)C1CC1)c1c(-c2ccc[nH]c2=O)c2c3occc3c(F)cc2n1Cc1cc(C(O)CO)ccc1F	-	-	-	<0.5 µM
COc1cc(C2Oc3c(O)cc([C@H]4Oc5cc(O)cc(O)c5C(=O)[C@@H]4O)cc3[C@H]2CO)ccc1O	-	1b	Huh7	>100 µM
CC1(C)CCCCc2cccc3c2CN(C3)C(=O)O[C@@H]2C[C@@H](C(=O)NC3CCOB3O)N(C2)C(=O)[C@H](C(C)(C)C)NC(=O)OC1	genotype 1b	-	-	0.52 µM
CCOc1nc(NCc2ccc(F)cc2)nc2ccc(-c3ccc(NC(=O)[C@H]4CCNC4)c(F)c3)nc12	-	-	-	<0.1 µM
O=C(NS(=O)(=O)C1CC1)c1c(-c2ccc[nH]c2=O)c2c3occc3c(F)cc2n1Cc1cc2c(=O)[nH]cnc2cc1F	-	-	-	<0.5 µM
COc1cc(OC)c(CCC2(C3CCCC3)CC(O)=C(Sc3nc4nc(C)cc(C)n4n3)C(=O)O2)cc1Cl	-	FC	-	87 µM
C=C[C@H]1C[C@@]1(NC(=O)[C@@H]1C[C@@H](Oc2cc(C3CC3)nc3cc(OC)ccc23)CN1C(=O)[C@@H](NC(=O)OC(C)(C)C)C(C)(C)C)C(=O)NS(=O)(=O)C1(CC2CC2)CC1	-	1b	Huh7	<0.05 µM
CNC(=O)c1c(-c2ccc(F)cc2)oc2cc(N3CCOCC3)c(OC)cc12	-	-	Huh7	<1 µM
CC1(C)CCCCc2cccc3c2CN(C3)C(=O)O[C@@H]2C[C@@H](C(=O)NC3B(O)OC[C@@H]3C3CC3)N(C2)C(=O)[C@H](C(C)(C)C)NC(=O)OC1	genotype 1b	-	-	4.2 µM
C=C[C@H]1C[C@@]1(NC(=O)[C@@H]1C[C@@H](Oc2cc(-c3ccccc3)nc3cc(OC)ccc23)CN1C(=O)[C@@H](NC(=O)OC(C)(C)C)C(C)(C)C)C(=O)NS(=O)(=O)C1(Cc2ccncc2)CC1	-	1b	Huh7	<0.05 µM
CCCCC#Cc1ccc(NC(N)=S)cc1C(F)(F)F	-	-	Huh7	<1 µM
CCC[C@H](NC(=O)[C@@H]1[C@H]2CCC[C@H]2CN1C(=O)[C@@H](NC(=O)[C@@H](NC(=O)c1cnccn1)C1CCCCC1)C(C)(C)C)C(=O)C(=O)N[C@@H](C)Cc1ccccc1	-	-	Huh7	0.11 µM
CN(CCS(C)(=O)=O)c1nc(NCc2ccc(F)cc2)nc2ccc(-c3ccc(NC(=O)C4(O)CC4)cc3)nc12	-	-	-	<0.1 µM
NC(=S)Nc1ccc(OCC2CCCCC2)cc1	-	-	Huh7	<1 µM
C=C[C@H]1C[C@@]1(NC(=O)[C@@H]1C[C@@H](Oc2cc(-c3ccccc3)nc3cc(OC)ccc23)CN1C(=O)[C@@H](NC(=O)NCC)C(C)(C)C)C(=O)NS(=O)(=O)C1(Cc2ccccc2)CC1	-	1b	Huh7	0.05–0.5 µM
CNC(=O)c1c(-c2ccc(F)cc2)oc2cc(N3CCOCC3)c(OCC(C)(C)O)cc12	-	-	Huh7	<10 µM
CC1(C)CC(=O)C2=C(C1)Nc1ccc(C(=O)c3ccccc3)cc1NC2c1ccccc1Cl	-	-	Huh7	2.636 µM
CNC(=O)c1c(-c2ccc(F)cc2)oc2cc(N3CCOCC3)c(OCc3nccn3Cc3ccccc3)cc12	-	-	Huh7	<1 µM
Nc1nc2ccc(Cn3c(C(=O)O)c(-c4ccc[nH]c4=O)c4c5occc5c(F)cc43)cc2[nH]1	-	-	-	<0.5 µM
CC1(C)CC(=O)C2=C(C1)Nc1ccc(C(=O)c3ccccc3)cc1NC2c1ccc(F)cc1	-	-	Huh7	24.5 µM
CCCCCOc1ccc(NC(N)=S)cc1	-	-	Huh7	<1 µM
CCC[C@H](NC(=O)[C@@H]1[C@H]2CCC[C@H]2CN1C(=O)[C@@H](NC(=O)[C@@H](NC(=O)c1cnccn1)C1CCCCC1)C(C)(C)C)C(=O)C(=O)NC1CC1	-	-	Huh7	0.31 µM
NC(=S)Nc1cccc(NCC2CCCCC2)c1	-	-	Huh7	<1 µM
COc1ccc([C@H]2Oc3ccc([C@H]4Oc5cc(O)cc(O)c5C(=O)[C@@H]4O)cc3O[C@@H]2CO)cc1O	-	1b	Huh7	1.5 µM
CCCC(NC(=O)[C@@H]1[C@H]2CCC[C@H]2CN1C(=O)[C@@H](NC(=O)[C@@H](NC(=O)c1cnccn1)C(C)(C)C)C(C)(C)C)C(=O)C(=O)NC1CC1	-	-	Huh7	1.7 µM
Cc1cc2ccc3c(c(-c4ccc[nH]c4=O)c(C(=O)O)n3Cc3ccccc3F)c2o1	-	-	-	>1.5 µM
NS(=O)(=O)c1ccc(CNc2nc(NCC(F)(F)F)c3nc(-c4cc[nH]c(=O)c4)ccc3n2)cc1	-	-	-	<0.1 µM
NCc1ccc(Cn2c(C(=O)O)c(-c3ccc[nH]c3=O)c3c4occc4c(F)cc32)cc1	-	-	-	<0.5 µM
CCCCCc1ccc(NC(N)=S)cc1	-	-	Huh7	<1 µM
CNC(=O)c1c(-c2ccc(F)cc2)oc2cc(N3CCC(F)CC3)c(OC(C)C)cc12	-	-	Huh7	<1 µM
CCC(=O)Nc1ccc(-c2ccc3nc(N)nc(N4CCS(=O)(=O)CC4)c3n2)cc1	-	-	Huh7	<0.3 µM
C[C@@H]1COc2c1ccc1c2c(-c2ccc[nH]c2=O)c(C(=O)NS(C)(=O)=O)n1Cc1cc(F)ccc1F	-	-	-	<0.5 µM
C=C[C@H]1C[C@@]1(NC(=O)[C@@H]1C[C@@H](Oc2cc(-c3ccccc3)nc3cc(OC)ccc23)CN1C(=O)[C@@H](NC(=O)OC(C)(C)C)C(C)(C)C)C(=O)NS(=O)(=O)C1(I)CC1	-	1b	Huh7	<0.05 µM
CCN(CC)c1ccc(C2CC(=O)C3=C(C2)Nc2ccccc2N(C(C)=O)C3c2ccc(OC)cc2)cc1	-	-	Huh7	>32 µM
COc1ccc2cc(Cn3c(C(=O)O)c(-c4ccc[nH]c4=O)c4c5occc5c(F)cc43)c(Cl)nc2c1	-	-	-	<0.5 µM
CCCOc1cc2c(C(=O)NC)c(-c3ccc(F)cc3)oc2cc1NS(C)(=O)=O	-	-	Huh7	<1 µM
NC(=S)Nc1ccc(OCc2ccccc2)cc1	-	-	Huh7	<1 µM
O=C1C(O)CCN1c1ccc(-c2ccc3nc(NCc4ccc(F)cc4)nc(NCC(F)(F)F)c3n2)cc1	-	-	-	<0.1 µM
CC(=O)N1c2ccccc2NC2=C(C(=O)CC(c3ccccc3OCc3ccccc3)C2)C1c1ccccc1	-	-	Huh7	>32 µM
O=C(O)c1c(-c2ccc[nH]c2=O)c2c3occc3c(F)cc2n1Cc1nc(Br)ccc1F	-	-	-	<0.5 µM
CS(=O)(=O)C1CCN(c2nc(NCc3ccc(F)cc3)nc3ccc(-c4ccc(F)cc4)nc23)C1	-	-	-	<0.1 µM
CCC[C@H](NC(=O)[C@@H]1C2CCCC2CN1C(=O)[C@@H](NC(=O)[C@@H](NC(=O)c1cnccn1)C1CCCCC1)C(C)(C)C)C(=O)C(=O)N[C@@H](C)c1ccncc1	-	-	Huh7	0.31 µM
CCOc1nc(NCc2ccc(S(N)(=O)=O)cc2)nc2ccc(-c3cccc(NS(=O)(=O)C4CC4)c3)nc12	-	-	-	<0.1 µM
CNC(=O)c1c(-c2ccc(F)cc2)oc2cc(N(Cc3nc(C(=O)O)cs3)S(C)(=O)=O)c(OC(C)C)cc12	-	-	Huh7	>100 µM
CCCC(NC(=O)[C@@H]1C2CCCC2CN1C(=O)[C@@H](NC(=O)[C@@H](NC(=O)c1cnccn1)C1CCCCC1)C(C)(C)C)C(=O)C(=O)N[C@@H](C)CC	-	-	Huh7	0.89 µM
NS(=O)(=O)c1ccc(CNc2nc(C3CC3)c3nc(-c4cccc(S(N)(=O)=O)c4)ccc3n2)cc1	-	-	-	<0.1 µM

a–b is a range or a potency band. ECn is the concentration giving n% inhibition of infection, replication or growth. An empty or dashed field is not shown.